## Sequence variants of PSTVd stem 26 after infection

Source: Wu et al. 2024 (doi:10.1371/journal.ppat.1012142), supplementary data.

The pool varies stem 26 of the PSTVd intermediate strain in the pattern AGGGUNNCNN; wild type is AGGGUACCCU (upper and lower strand joined, each 5' to 3', the first 5 letters being the upper strand).

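A pool of all variants was put on leaves of three Nicotiana benthamiana plants. Samples came from the inoculated region at 5 days, the leaf margin at 10 and upper systemic leaves at 12.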

Values are reads per thousand in the sample; higher means more abundant, 0 means not found. Each value is the mean of three plants. "Pool" is the share in the plasmid pool used as inoculum, on the same scale. The inoculated region was read from the minus strand, the other sites from the plus strand.

AGGGUUGUCC (pool 0.0658) read inoculated region 1.26; leaf margin 0.646; systemic leaves 0.
AGGGUGCCAG (pool 2.52) read inoculated region 0.788; leaf margin 0; systemic leaves 0.
AGGGUGUCUG (pool 2.98) read inoculated region 1.85; leaf margin 1.24; systemic leaves 0.696.
AGGGUGUCAC (pool 3.64) read inoculated region 2.69; leaf margin 1.30; systemic leaves 0.669.
AGGGUCCCUC (pool 2.93) read inoculated region 2.24; leaf margin 0.688; systemic leaves 0.
AGGGUUUCGC (pool 5.38) read inoculated region 5.12; leaf margin 1.12; systemic leaves 0.384.
AGGGUACCGU (pool 2.96) read inoculated region 0.951; leaf margin 0.0733; systemic leaves 0.0509.
AGGGUUGCGC (pool 5.33) read inoculated region 2.25; leaf margin 0.00742; systemic leaves 0.149.
AGGGUGUCGC (pool 4.26) read inoculated region 3.72; leaf margin 1.57; systemic leaves 0.645.
AGGGUAGCAC (pool 2.83) read inoculated region 0.680; leaf margin 0.0173; systemic leaves 0.
AGGGUCUCUU (pool 3.08) read inoculated region 2.60; leaf margin 0.599; systemic leaves 0.00551.
AGGGUCUGCC (pool 0.461) read inoculated region 1.82; leaf margin 0.745; systemic leaves 0.
AGGGUCUCCC (pool 3.29) read inoculated region 2.53; leaf margin 0.810; systemic leaves 0.275.
AGGGUGCCAA (pool 2.70) read inoculated region 0.777; leaf margin 0; systemic leaves 0.
AGGGUACCUG (pool 2.94) read inoculated region 0.812; leaf margin 0; systemic leaves 0.
AGGGUCCCGG (pool 3.29) read inoculated region 1.51; leaf margin 0.00992; systemic leaves 0.
AGGGUGCCCC (pool 2.76) read inoculated region 2.13; leaf margin 0.708; systemic leaves 0.
AGGGUGUGCC (pool 0.0329) read inoculated region 1.36; leaf margin 1.44; systemic leaves 0.562.
AGGGUCACAA (pool 3.14) read inoculated region 1.39; leaf margin 0.0248; systemic leaves 0.
AGGGUUGCAG (pool 2.96) read inoculated region 0.952; leaf margin 0.00742; systemic leaves 0.00551.
AGGGUCCCUU (pool 2.80) read inoculated region 0.999; leaf margin 0.00871; systemic leaves 0.0378.
AGGGUAUCUC (pool 4.39) read inoculated region 2.92; leaf margin 1.33; systemic leaves 1.11.
AGGGUGUCGG (pool 4.28) read inoculated region 3.39; leaf margin 0.795; systemic leaves 0.374.
AGGGUCGCUG (pool 4.11) read inoculated region 2.43; leaf margin 0.0186; systemic leaves 0.186.
AGGGUAUCAU (pool 4.29) read inoculated region 1.81; leaf margin 0.00871; systemic leaves 0.
AGGGUAACGA (pool 3.37) read inoculated region 1.39; leaf margin 0; systemic leaves 0.
GGUUUCCCAU (pool 0.0329) read inoculated region 0; leaf margin 0; systemic leaves 0.
AGGGUAACGU (pool 2.65) read inoculated region 1.02; leaf margin 0.0173; systemic leaves 0.0150.
AGGGUUGCGU (pool 4.47) read inoculated region 1.77; leaf margin 0.119; systemic leaves 0.0950.
AGGGUGCUCA (pool 0.0493) read inoculated region 1.08; leaf margin 0.703; systemic leaves 0.
AGGGUAUCUA (pool 2.58) read inoculated region 2.02; leaf margin 0.703; systemic leaves 0.
AGGGUGGGCU (pool 0.0493) read inoculated region 0.00788; leaf margin 0; systemic leaves 0.
AGGGUAGCGC (pool 3.70) read inoculated region 1.38; leaf margin 0; systemic leaves 0.
AGGGUUAGCU (pool 0.0329) read inoculated region 0.00788; leaf margin 0; systemic leaves 0.
AGGGUGACCC (pool 0.197) read inoculated region 0.976; leaf margin 0.0186; systemic leaves 0.107.
AGGGUUUCGA (pool 4.16) read inoculated region 1.04; leaf margin 0; systemic leaves 0.00475.
AGGGUCGCGU (pool 4.85) read inoculated region 1.66; leaf margin 0; systemic leaves 0.0228.
AGGGUAGCUU (pool 2.99) read inoculated region 0.853; leaf margin 0; systemic leaves 0.
AGGGUACCGC (pool 3.50) read inoculated region 1.96; leaf margin 0.00871; systemic leaves 0.0623.
AGGGUAUCUU (pool 3.98) read inoculated region 2.63; leaf margin 0.671; systemic leaves 0.275.

Extract of 2 entries:

sequence	pool	inoculated region	leaf margin	systemic leaves
AGGGUAGCGC	3.70	1.38	0	0
AGGGUAACGU	2.65	1.02	0.0173	0.0150

For reference, wild type rose from 44.9 per thousand in the pool to 297, 323, 447 (inoculated region), 793, 829, 846 (leaf margin) and 974, 853, 877 (systemic leaves). Sequences that differ at fixed positions probably stem from PCR or sequencing errors, and defective variants can be carried along by functional ones. With 23,251-70,159 reads a sample, very low values are single reads.